Data reported in paper PMC6768660, “Protein engineering expands the effector recognition profile of a rice NLR immune receptor” (eLife, 2019).

Target: AVR-PikD with C-terminal 6xHis tag (Magnaporthe oryzae, UniProt C4B8B8)
Test: SPR

B1: Pikp-HMA^NK-KE (domain or fragment)
chain: GLKQKIVIKVAMEGNNCRSKAMALVASTGGVDSVALVGDLRDKIEVVGYGIDPIKLISALRKKVGDAELLQVSQAKED
- binding result: binds
